A mixed list of measured activities; the numbers were collected in NIAID ChemDB.

Shared fields: whole-cell or culture tests; agent: HIV-1

Blank or dashed fields: not listed here.

CC1=C[C@@H]([C@H]2Oc3cc4c(c5c3[C@H](CC5)[C@@H]2C)CC[C@H]2C(C)(C)O[C@@H]3CC(=O)O[C@@]32C4)OC1=O ; measure: EC50 ; cell line: C8166 ; strain or isolate: IIIB ; read by: syncytia ; value: ~24 µg/mL
CC(=O)O[C@@H]1CSS(=O)(=O)C[C@H]1OC(C)=O ; measure: EC50 ; cell line: CEM + CEM-SS ; strain or isolate: RF ; read by: XTT ; value: >19 µM
N#Cc1c2c3c(c4ccccc4n3CC(CN3CCOCC3)O2)n(-c2ccc([N+](=O)[O-])cc2)c1=O ; measure: EC50 ; cell line: MT-4 ; strain or isolate: LAI ; read by: cytopathic effect / MTT ; value: 4.51 µM
CC(C)C1=C2[C@H]3CC[C@@H]4[C@@]5(C)CC[C@H](OC(=O)[C@H]6C[C@@H](C(=O)O)C6(C)C)C(C)(C)[C@@H]5CC[C@@]4(C)[C@]3(C)CC[C@@]2(CCNC(=O)c2ccncc2)CC1=O ; measure: EC50 ; cell line: MT-2 ; strain or isolate: 92HT599 ; read by: p24 / ELISA ; value: <1 µM
Fc1cccc(CCNc2nc(SC3CCCC3)nc3c2cnn3CC(Cl)c2ccccc2)c1 ; measure: EC50 ; value: 37.09 µM
C#CCOCn1c(Cc2ccccc2)c(CO)c(=O)[nH]c1=O ; measure: EC50 ; changes: Y181C ; cell line: MT-4 ; strain or isolate: Clinical isolates ; read by: MTT ; value: >100 µM
CCC(=O)Nc1cc(NC(=O)CSc2nc(CCc3ccccc3)nc3sc4c(c23)CCCC4)ccc1C ; measure: EC50 ; value: 64.5 µM
O=S1(=O)CCCCS1 ; measure: EC50 ; cell line: CEM + CEM-SS ; strain or isolate: RF ; read by: XTT ; value: >5.7 µM
CC(C)C1=C2[C@H]3CC[C@@H]4[C@@]5(C)CC[C@H](OC(=O)[C@H]6C[C@@H](C(=O)O)C6(C)C)C(C)(C)[C@@H]5CC[C@@]4(C)[C@]3(C)CC[C@@]2(CCNC(=O)c2ccc(Cl)cc2OCCN2CCS(=O)(=O)CC2)CC1=O ; measure: EC50 ; cell line: MT-2 ; strain or isolate: 92HT599 ; read by: p24 / ELISA ; value: <1 µM
CC(C)(C)OC(=O)NCC(=O)N1CCC(O)C1 ; measure: EC50 ; cell line: MT-4 ; read by: syncytia / trypan blue ; value: >100 µM
N#Cc1c2c3c(c4ccccc4n3CC(CN3CCCC3)O2)n(-c2ccc([N+](=O)[O-])cc2)c1=O ; measure: EC50 ; cell line: MT-4 ; strain or isolate: LAI ; read by: cytopathic effect / MTT ; value: 0.34 µM
CC(C)(C)OC(=O)NC(Cc1ccc(OCc2ccccc2)cc1)C(=O)N1CCC(=O)C1 ; measure: EC50 ; cell line: MT-4 ; read by: syncytia / trypan blue ; value: 10 µM
CCN(CC)c1ncnc2c1ncn2[C@H]1CC[C@@H](CO)O1 ; measure: EC50 ; cell line: C8166 ; strain or isolate: RF ; read by: cytopathic effect / MTT / p24 ; value: <100 µM
CC(=O)OCC1(COC(C)=O)CSSC1 ; measure: EC50 ; cell line: CEM + CEM-SS ; strain or isolate: RF ; read by: XTT ; value: >200 µM
CCCCCCCCOC(=O)N[C@@H](Cc1ccccc1)C(=O)N1CCC(=O)C1 ; measure: EC50 ; cell line: MT-4 ; read by: syncytia / trypan blue ; value: >50 µM
NC(=O)CCNC(=O)c1ccccc1SC(=O)c1cccnc1 ; measure: EC50 ; cell line: CEM ; strain or isolate: RF ; read by: XTT ; value: 2.9 µM
CC(C)C1=C2[C@H]3CC[C@@H]4[C@@]5(C)CC[C@H](OC(=O)[C@H]6C[C@@H](C(=O)O)C6(C)C)C(C)(C)[C@@H]5CC[C@@]4(C)[C@]3(C)CC[C@@]2(CCNCC(C)(C)NC(=O)c2nccn2C)CC1=O ; measure: EC50 ; cell line: MT-2 ; strain or isolate: 92HT599 ; read by: p24 / ELISA ; value: <1 µM
CN(C)c1ncnc2c1ncn2[C@H]1CC[C@@H](CO)O1 ; measure: EC90 ; cell line: JM ; strain or isolate: GB8 ; read by: p24 ; value: 40 µM
C=C(C)COCn1c(Cc2ccccc2)c(CF)c(=O)[nH]c1=O ; measure: EC50 ; changes: EFV:K103R+V179D+P225H ; cell line: MT-4 ; strain or isolate: IIIB ; read by: MTT ; value: >20 µM
CSc1nc(NCc2ccccc2Cl)c2cnn(CC(Cl)c3ccc(Br)cc3)c2n1 ; measure: EC50 ; value: 21.09 µM
CCc1c(Cc2cc(C)cc(C)c2)n(Cc2ccc(C#CCF)cc2)c(=O)[nH]c1=O ; measure: EC50 ; changes: Y181C ; cell line: MT-4 ; strain or isolate: Clinical isolates ; read by: MTT ; value: 0.6 µM
CC(=O)OCC1(COC(C)=O)CSS(=O)C1 ; measure: EC50 ; cell line: CEM + CEM-SS ; strain or isolate: RF ; read by: XTT ; value: >143 µM
CCc1c(Cc2cc(C)cc(C)c2)n(COCCO)c(=O)[nH]c1=O ; measure: EC50 ; changes: Y181C ; cell line: MT-4 ; strain or isolate: Clinical isolates ; read by: MTT ; value: 3 µM
COc1ccc(CNC(=O)C[C@@]23CC[C@]4(C)[C@H](CC[C@@H]5[C@@]6(C)CC[C@H](OC(=O)[C@H]7C[C@@H](C(=O)O)C7(C)C)C(C)(C)[C@@H]6CC[C@]54C)C2=C(C(C)C)C(=O)C3)cc1 ; measure: EC50 ; cell line: MT-2 ; strain or isolate: 92HT599 ; read by: p24 / ELISA ; value: <1 µM
CC(=O)O[C@@H]1CSS(=O)C[C@H]1OC(C)=O ; measure: EC50 ; cell line: CEM + CEM-SS ; strain or isolate: RF ; read by: XTT ; value: >22 µM
CN1CCn2c3ccccc3c3c2c1c(C#N)c(=O)n3-c1ccc([N+](=O)[O-])cc1 ; measure: EC50 ; cell line: MT-4 ; strain or isolate: LAI ; read by: cytopathic effect / MTT ; value: 1.88 µM
Cc1noc(C)c1CNC(=O)C[C@@]12CC[C@]3(C)[C@H](CC[C@@H]4[C@@]5(C)CC[C@H](OC(=O)[C@H]6C[C@@H](C(=O)O)C6(C)C)C(C)(C)[C@@H]5CC[C@]43C)C1=C(C(C)C)C(=O)C2 ; measure: EC50 ; cell line: MT-2 ; strain or isolate: 92HT599 ; read by: p24 / ELISA ; value: <1 µM
O=C(CCCN1C(=O)S/C(=C/c2cccs2)C1=O)Nc1nc2ccccc2s1 ; measure: EC50 ; value: >100 µM
CC(C)C1=C2[C@H]3CC[C@@H]4[C@@]5(C)CC[C@H](OC(=O)[C@H]6C[C@@H](C(=O)O)C6(C)C)C(C)(C)[C@@H]5CC[C@@]4(C)[C@]3(C)CC[C@@]2(CC(=O)NCC(C)(CCCN)NC(=O)c2ccc(Cl)cc2)CC1=O ; measure: EC50 ; cell line: MT-2 ; strain or isolate: 92HT599 ; read by: p24 / ELISA ; value: <1 µM
CC(C)(C)OC(=O)NC(Cc1ccc(OCc2ccccc2)cc1)C(=O)N1CCC(O)C1 ; measure: EC50 ; cell line: MT-4 ; read by: syncytia / trypan blue ; value: >100 µM

3 of the rows above, restated:

structure	measure	changes	cell line	strain or isolate	read by	value
CN(C)c1ncnc2c1ncn2[C@H]1CC[C@@H](CO)O1	EC90	-	JM	GB8	p24	40 µM
C=C(C)COCn1c(Cc2ccccc2)c(CF)c(=O)[nH]c1=O	EC50	EFV:K103R+V179D+P225H	MT-4	IIIB	MTT	>20 µM
Cc1noc(C)c1CNC(=O)C[C@@]12CC[C@]3(C)[C@H](CC[C@@H]4[C@@]5(C)CC[C@H](OC(=O)[C@H]6C[C@@H](C(=O)O)C6(C)C)C(C)(C)[C@@H]5CC[C@]43C)C1=C(C(C)C)C(=O)C2	EC50	-	MT-2	92HT599	p24 / ELISA	<1 µM

Lines come from different laboratories, so protocols vary. ECn: concentration that inhibits the pathogen or its effect by n%.